Reference: patent publication US20240287043A1, “KETOAMIDE DERIVATIVE AND APPLICATION THEREOF” (GUANGDONG RAYNOVENT BIOTECH CO., LTD., priority 2021, published 2024)

Experiments:
SARS-COV-2 Mpro = SARS-COV-2 Mpro (Severe acute respiratory syndrome coronavirus 2, UniProt P0DTD1); experiment: In vitro inhibitory activity against Mpro protease of novel coronavirus (fluorescence substrate assay); settings: 25 nM Mpro protein, 25 μM substrate
Procedure: • Tris: Sigma; • EDTA: Sigma; • NaCl: Sigma; • 384 well Plate: Perkin Elmer; • Dimethyl sulfoxide (DMSO): Sigma; • Substrate (Dabcyl-KTSAVLQSGFRKM-(Edans)): GenScript; • SARS-COV-2 Mpro: WuXi AppTec; • GC376: TargetMol.
The compounds were dissolved in DMSO and diluted in a 3-fold gradient using Echo655 according to the concentration required to be measured, with 10 concentration points and duplicate wells for each concentration, and added to a 384-well plate. […] . Simultaneously, a background well containing both the substrate and the compound but no Mpro protein was detected as control.
1) Inhibition rate was calculated using the formula below:
*HPE: a control with 100% inhibition, containing 25 nM Mpro protein+25 μM substrate+1 μM GC376; ZPE: a control without inhibition, containing 25 nM Mpro protein+25 μM substrate, no compound; Compound: a well with the test compound, containing 25 nM Mpro protein+25 μM substrate+Compound; BG: a background control well, containing 25 μM substrate+Compound, no Mpro protein.
2) The inhibition rate data (inhibition rate %) of the compounds were analyzed by nonlinear fitting of log(agonist) vs. response—Variable slope using a GraphPad Prism software, to obtain IC50 values of the compounds, with the experimental results shown in Table 1.

HCoV OC43 = experiment: In vitro anti-coronavirus activity using a cytopathic model (CPE, CellTiter Glo); settings: HCoV OC43 100 TCID50/well, MRC5 cells, 5 days

SMILES: CC(C)(C)[C@H](NC(=O)C(F)(F)F)C(=O)N1CC2C(CCC23CC3)C1C(=O)N[C@@H](C[C@@H]1CCNC1=O)C(=O)C(=O)NC1CCCC1 (some centres unmarked)
- IC50 (SARS-COV-2 Mpro): 15 nM
- EC50 (HCoV OC43): 410 nM
